One experiment concerns the target Kv1.2 (Homo sapiens, UniProt P16389). To be noted: for IC50: read-out: IC50 (95% Confidence Interval) Kv1.2, unskinned Xenopus oocytes.
The next experiment concerns the target Kv1.3 (Homo sapiens, UniProt P22001). To be noted: read-out: IC50 (95% Confidence Interval) Kv1.3; unskinned Xenopus oocytes.
The next experiment has as its target Kv1.4 (Homo sapiens, UniProt P22459). To be noted: read-out: IC50 (95% Confidence Interval) Kv1.4; unskinned Xenopus oocytes.
The next experiment concerns the target Kv1.5 (Homo sapiens, UniProt P22460). To be noted: read-out: IC50 (95% Confidence Interval) Kv1.5; unskinned Xenopus oocytes.
The target in experiment [1] is T1, Kv1.6 (Homo sapiens, UniProt P17658).
Experiment [2] has as its system noradrenaline- and ATP-mediated responses of rat prostatic vas deferens. To be noted: 10 μM.
A further experiment has as its system mice (Swiss-Webster). Nature of the experiment: Intracranial injection in mice, mouse-drop assay.
The next experiment has as its system C. elegans. Nature of the experiment: Microinjection into the pseudocoelomic region of C. elegans. The settings on record: ˜10 pmol per worm.
In experiment [3] the target is T1, Kv1.6. The experiment is described as follows: Initial screening on channels expressed in skinned Xenopus oocytes. To be noted: 1 μM.
Setting [4] is: ratio of IC50 values versus CPY-Fe1.

Protein sequences, listed by entry. Tags and fused reporters are not part of them.
UniProt P16389, whole entry, looked up: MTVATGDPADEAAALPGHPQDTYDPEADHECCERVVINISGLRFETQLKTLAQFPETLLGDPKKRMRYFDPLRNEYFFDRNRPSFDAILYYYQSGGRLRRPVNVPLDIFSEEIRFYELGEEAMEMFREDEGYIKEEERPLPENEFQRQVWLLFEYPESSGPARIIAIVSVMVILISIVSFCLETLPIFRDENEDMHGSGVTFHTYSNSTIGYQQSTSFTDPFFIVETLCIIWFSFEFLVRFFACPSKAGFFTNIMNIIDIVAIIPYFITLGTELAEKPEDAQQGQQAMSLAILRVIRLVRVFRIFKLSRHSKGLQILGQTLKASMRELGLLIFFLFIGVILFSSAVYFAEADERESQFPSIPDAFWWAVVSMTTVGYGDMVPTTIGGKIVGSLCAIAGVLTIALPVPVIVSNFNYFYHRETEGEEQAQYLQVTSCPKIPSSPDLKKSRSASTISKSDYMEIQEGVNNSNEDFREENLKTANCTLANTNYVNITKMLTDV
UniProt P22001, whole entry, looked up: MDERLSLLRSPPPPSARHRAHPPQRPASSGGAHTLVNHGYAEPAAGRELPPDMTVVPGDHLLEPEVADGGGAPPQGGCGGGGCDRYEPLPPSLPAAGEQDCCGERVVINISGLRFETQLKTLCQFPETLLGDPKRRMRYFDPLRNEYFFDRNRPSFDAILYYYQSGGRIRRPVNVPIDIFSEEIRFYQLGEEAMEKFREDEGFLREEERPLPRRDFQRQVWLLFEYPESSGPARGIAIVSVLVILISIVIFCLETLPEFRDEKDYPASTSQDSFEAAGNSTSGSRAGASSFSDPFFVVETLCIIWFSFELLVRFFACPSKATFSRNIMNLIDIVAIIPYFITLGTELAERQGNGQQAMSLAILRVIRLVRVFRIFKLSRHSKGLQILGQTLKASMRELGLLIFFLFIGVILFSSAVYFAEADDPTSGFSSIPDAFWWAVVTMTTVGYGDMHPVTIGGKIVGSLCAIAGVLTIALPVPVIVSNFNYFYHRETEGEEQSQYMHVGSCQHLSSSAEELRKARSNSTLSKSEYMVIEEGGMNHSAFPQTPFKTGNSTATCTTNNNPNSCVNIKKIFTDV
UniProt P22459, whole entry, looked up: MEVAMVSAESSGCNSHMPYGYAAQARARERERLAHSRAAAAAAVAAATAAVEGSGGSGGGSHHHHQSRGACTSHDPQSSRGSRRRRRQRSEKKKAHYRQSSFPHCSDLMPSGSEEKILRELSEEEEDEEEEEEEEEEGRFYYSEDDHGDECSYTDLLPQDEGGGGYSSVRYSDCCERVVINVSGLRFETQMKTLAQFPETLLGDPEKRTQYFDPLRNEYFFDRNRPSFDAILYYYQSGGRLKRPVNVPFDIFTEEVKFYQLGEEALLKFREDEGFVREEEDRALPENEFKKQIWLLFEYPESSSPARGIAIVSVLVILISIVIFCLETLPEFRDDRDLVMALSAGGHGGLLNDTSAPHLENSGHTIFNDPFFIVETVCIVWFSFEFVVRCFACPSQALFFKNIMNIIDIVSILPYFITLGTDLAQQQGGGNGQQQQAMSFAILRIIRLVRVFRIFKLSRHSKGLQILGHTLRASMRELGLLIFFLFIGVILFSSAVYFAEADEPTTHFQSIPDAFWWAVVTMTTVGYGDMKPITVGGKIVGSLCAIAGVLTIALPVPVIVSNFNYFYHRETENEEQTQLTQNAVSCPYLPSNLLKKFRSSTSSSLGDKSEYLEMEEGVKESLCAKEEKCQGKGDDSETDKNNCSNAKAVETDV
UniProt P22460, whole entry, looked up: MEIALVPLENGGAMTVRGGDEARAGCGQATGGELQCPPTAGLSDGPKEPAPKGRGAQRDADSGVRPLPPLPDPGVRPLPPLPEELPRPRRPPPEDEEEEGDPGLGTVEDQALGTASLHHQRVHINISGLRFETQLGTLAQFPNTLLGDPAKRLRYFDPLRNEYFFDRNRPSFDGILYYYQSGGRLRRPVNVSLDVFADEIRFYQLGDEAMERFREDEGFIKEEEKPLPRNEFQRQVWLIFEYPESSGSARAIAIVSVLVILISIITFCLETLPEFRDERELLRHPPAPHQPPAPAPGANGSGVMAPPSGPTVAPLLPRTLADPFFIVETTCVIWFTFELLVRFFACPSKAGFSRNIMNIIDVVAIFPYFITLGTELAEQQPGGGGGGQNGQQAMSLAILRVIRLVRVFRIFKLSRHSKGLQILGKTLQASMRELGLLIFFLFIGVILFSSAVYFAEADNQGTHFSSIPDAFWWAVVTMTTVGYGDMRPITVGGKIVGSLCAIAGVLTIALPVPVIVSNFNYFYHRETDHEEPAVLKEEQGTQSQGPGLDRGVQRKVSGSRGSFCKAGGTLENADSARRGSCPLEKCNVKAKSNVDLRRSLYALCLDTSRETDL
UniProt P17658, whole entry, looked up: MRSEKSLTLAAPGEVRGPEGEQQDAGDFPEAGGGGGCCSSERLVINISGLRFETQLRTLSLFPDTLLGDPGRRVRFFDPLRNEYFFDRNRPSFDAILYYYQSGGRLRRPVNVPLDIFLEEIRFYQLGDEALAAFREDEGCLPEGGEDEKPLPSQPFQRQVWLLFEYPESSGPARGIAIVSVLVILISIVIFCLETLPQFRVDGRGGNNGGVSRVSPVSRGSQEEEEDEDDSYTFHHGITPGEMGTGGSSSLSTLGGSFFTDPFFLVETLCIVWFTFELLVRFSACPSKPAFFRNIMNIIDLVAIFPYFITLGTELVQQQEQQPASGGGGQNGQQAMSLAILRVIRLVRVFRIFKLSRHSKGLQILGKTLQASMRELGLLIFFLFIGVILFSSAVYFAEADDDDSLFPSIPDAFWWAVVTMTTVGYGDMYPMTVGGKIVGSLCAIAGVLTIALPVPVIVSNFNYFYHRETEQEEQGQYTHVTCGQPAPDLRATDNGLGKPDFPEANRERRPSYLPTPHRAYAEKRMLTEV

On to `CC[C@H](C)[C@H](NC(=O)[C@H](Cc1ccc(O)cc1)NC(=O)[C@H](Cc1ccc(O)cc1)NC(=O)[C@@H](NC(=O)[C@@H]1CCCN1C(=O)[C@H](Cc1ccc(O)cc1)NC(=O)[C@H](CCCNC(=N)N)NC(=O)[C@H](Cc1c[nH]cn1)NC(=O)[C@H](CC(C)C)NC(=O)[C@H](Cc1ccccc1)NC(=O)[C@H](CCCNC(=N)N)NC(=O)[C@@H](NC(=O)[C@H](CC(C)C)NC(=O)[C@H](Cc1ccc(O)cc1)NC(=O)[C@H](CCCNC(=N)N)NC(=O)[C@H](Cc1ccc(O)cc1)NC(=O)[C@H](CC(C)C)NC(=O)[C@@H](NC(=O)[C@H](Cc1ccc(O)cc1)NC(=O)[C@H](Cc1ccc(O)cc1)NC(=O)[C@H](CCC(N)=O)NC(=O)[C@H](Cc1ccccc1)NC(=O)[C@@H]1CCCN1C(=O)[C@H](Cc1c[nH]cn1)NC(=O)[C@H](CC(C)C)NC(=O)[C@H](Cc1ccccc1)NC(=O)[C@H](CCCNC(=N)N)NC(=O)[C@H](C)N)[C@@H](C)O)[C@@H](C)O)[C@@H](C)CC)C(=O)N[C@@H](CCCNC(=N)N)C(=O)N[C@@H](Cc1ccc(O)cc1)C(=O)O`, for which the “more active than CPY-Fe1 on Kv1.2” value at Kv1.2 (setting [4]) is on record as above 15 fold. Besides, the concentration for half-maximal inhibition (IC50) (commonly the point on the concentration scale where inhibition reaches its midpoint) is 2 µM at Kv1.2; above 50 µM at Kv1.3; above 50 µM at Kv1.4; above 50 µM on Kv1.5; 0.17 µM at Kv1.6 [1]. On Kv1.6 [1], the “selectivity within the Kv1 subfamily” value is listed as “highly selective for the Kv1.6 subtype”. The “more active than CPY-Fe1 on Kv1.6” value at Kv1.6 [1] (setting [4]) turned out to be 50 fold. Further, the “more potent on Kv1.6 than pl14a” value at Kv1.6 [1] (versus pl14a (κJ-conotoxin PIXIVA), from the same venom) is listed as 18 fold.
With `CC[C@H](C)[C@H](NC(=O)[C@H](Cc1c[nH]cn1)NC(=O)[C@@H](NC(=O)[C@H](Cc1ccc(O)cc1)NC(=O)[C@H](Cc1ccc(O)cc1)NC(=O)[C@H](Cc1ccc(O)cc1)NC(=O)[C@@H]1CCCN1C(=O)[C@H](CCC(N)=O)NC(=O)[C@H](CCCCN)NC(=O)[C@H](Cc1c[nH]cn1)NC(=O)[C@H](CC(C)C)NC(=O)[C@H](Cc1ccccc1)NC(=O)[C@H](CCCNC(=N)N)NC(=O)[C@@H](NC(=O)[C@H](Cc1ccccc1)NC(=O)[C@H](Cc1ccc(O)cc1)NC(=O)[C@H](CCCNC(=N)N)NC(=O)[C@H](Cc1c[nH]c2ccccc12)NC(=O)[C@H](CC(C)C)NC(=O)[C@H](CCCNC(=N)N)NC(=O)[C@H](Cc1ccc(O)cc1)NC(=O)[C@H](Cc1ccc(O)cc1)NC(=O)[C@H](CO)NC(=O)[C@H](Cc1ccccc1)NC(=O)[C@@H]1CCCN1C(=O)[C@H](Cc1ccc(O)cc1)NC(=O)[C@H](CC(C)C)NC(=O)[C@H](Cc1ccc(O)cc1)NC(=O)[C@@H](NC(=O)CN)[C@@H](C)O)[C@@H](C)O)C(C)C)C(=O)O`, the IC50 is above 30 µM on Kv1.2; above 50 µM on Kv1.3; above 50 µM on Kv1.4; above 50 µM on Kv1.5; 8.8 µM at Kv1.6 [1]. For the same compound, in experiment [2], the “effect on noradrenaline- and ATP-mediated contractile responses” value was “did not show any effect”. The “mice responding with mild to moderate seizures, mouse-drop assay” value in the experiment on mice (Swiss-Webster) (5 nmol, intracranial) is on record as “approximately 50%”. Further, the “outcome in mouse-drop assay” value with mice (Swiss-Webster) (20 nmol injected per mouse, intracranial) is “most of the mice developed severe seizures and died”. Also, the “symptoms after intracranial injection” value in the experiment on mice (Swiss-Webster) (approximately 0.7 nmol of peptide per gram of mouse) was “mild symptoms”. Also, the “duration of seizure after loud acoustic input” value with mice (Swiss-Webster) (˜1.5 nmol of peptide per gram of mouse, intracranial, one mouse) turned out to be 30 s. In addition, the “duration of partial paralysis” value with C. elegans is given as 20 min. The “worms with partial paralysis” value in the experiment on C. elegans was 4 out of 4. Moreover, the “activity on Kv1.6” value on Kv1.6 [3] is given as “active”.

Source of the values: patent US20100093620A1, “TYROSINE-RICH CONOPEPTIDES” (published 2010).
